The list shows a part of the results, in another mix than the full data. Results filed as inconclusive are left out. Activity calls are given as the source filed them. Calls follow the shape of the dose curve; as a rule, active = well fitted inhibition curve with a large enough effect; inconclusive = small, poorly fitted or top-dose-only effect, or another doubt; inactive = no such curve, though single readings can be large or run the other way.
Assay: Primary qHTS for delayed death inhibitors of the malarial parasite plastid, 96 hour incubation
Conditions: P. falciparum luciferase reporter growth
For `O=C(NCC1(N2CCCCC2)CCCCC1)c1cncc(Br)c1`, the Potency was active: 2.08 µM. In the case of `O=C(NCC1(N2CCOCC2)CCCCC1)c1cc2ccccc2o1`, the Potency is reported as active: 11.7 µM. For `O=C(NCC1(N2CCCCC2)CCCCC1)c1ccc(Cl)s1`, the Potency was active: 13.1 µM. In the case of `CCCCOc1ccc(C(=O)NCC2(N3CCOCC3)CCCCC2)cc1`, the Potency is reported as active: 14.7 µM.

— PubChem BioAssay AID504834 (National Center for Advancing Translational Sciences (NCATS), 2011)
Potency is read from the fitted curve at half-maximal effect.
